# Assay results: PubChem BioAssay AID588497 (NMMLSC, 2011)
# Only a part is listed here, and it is no random draw. Records with an inconclusive call do not appear. Activity calls are given as the source filed them. Cut-off read from the data, not from the text of the source: active = inhibition above about 35% (passing the limit was not always enough); inconclusive = no clear call, values can overlap the other calls.
# System: Botulinum neurotoxin type F light chain protease (Clostridium botulinum)
# Test: BoNT/F light chain protease inhibitors, primary screen, biochemical, flow cytometry, MLPCN library (AID 588497); note: plate controls were buffer without enzyme for full effect and enzyme alone for no effect
# Conditions: Multiplex microsphere protease cleavage assay, at 10 µM, stronger effect = higher value
row,SMILES,inhibition
1,O=[N+]([O-])C1C(O)C(O)C([N+](=O)[O-])C(O)C1O (stereo not given),inactive: -6.3%
2,Oc1ccccc1CNc1ccccn1,inactive: -3.4%
3,O=C(NC(Sc1ccncn1)C(Cl)(Cl)Cl)c1ccccc1 (stereo not given),inactive: 0.7%
4,CC(C)CC(=O)NC(Sc1ccc(Cl)cc1)C(Cl)(Cl)Cl (stereo not given),inactive: -6.7%
5,CN1CCCC(OC(=O)C(c2ccccc2)c2ccccc2)C1 (stereo not given),inactive: 5.6%
6,Clc1ccc(Cl)c(NC2=NCC(CBr)S2)c1 (stereo not given),inactive: -10.4%
7,COc1ccccc1OP(=O)(Nc1ccc(C)cn1)Oc1ccccc1OC,inactive: -3.1%
8,CN(C(=O)Cc1ccc(Cl)c(Cl)c1)[C@H]1CCCC[C@H]1N1CCCC1,inactive: -9.4%
9,Cc1ccc(N/C(=N/P(=O)(N2CCOCC2)N2CCOCC2)N2CCOCC2)cc1,inactive: -4.1%
10,NC(=O)c1cc([N+](=O)[O-])cc([N+](=O)[O-])c1N,inactive: 6.4%
11,Nc1cccc2ccc([As](=O)(O)O)cc12,active: 36.7%
12,CCN(N=Nc1nonc1N)c1nonc1N,inactive: 3.8%
13,Cc1cc(SC(NC(=O)c2ccc(F)cc2)C(Cl)(Cl)Cl)ncn1 (stereo not given),inactive: -8%
14,CCOP(=O)(Nc1ccccc1)OCC,inactive: 5.3%
15,CN(C(=O)Cc1ccc(Cl)c(Cl)c1)[C@H]1CCCC[C@@H]1N1CCCC1,inactive: -8.1%
16,Cc1ccc(NP(=O)(Oc2ccccc2F)Oc2ccccc2F)nc1,inactive: -8.8%
17,O=P(Nc1nc2ccc(Cl)cc2s1)(c1ccccc1)c1ccccc1,inactive: 0.9%
18,CN(C)P(=O)(N(C)C)n1c(Nc2ccccc2)nnc1-c1ccccc1,inactive: -5.1%
19,CC(=O)Nc1ccc([As](=O)(O)O)cc1,inactive: 1.8%
20,O=C(O)c1ccccc1[As](=O)(O)O,inactive: -0.1%
21,CCCC1OP(N)(=O)OCC1CC (stereo not given),inactive: -3.6%
22,COC(=O)C1(C)COP(=O)(Nc2ccccc2)OC1 (stereo not given),inactive: 3.1%
23,O=[N+]([O-])c1ncn(CCn2ncnc2[N+](=O)[O-])n1,inactive: -4.8%
24,CC(C)(C)C(=O)NC(Sc1ccncn1)C(Cl)(Cl)Cl (stereo not given),inactive: -5.5%
25,O=P1(N(CCCl)CCCl)OCCCS1 (stereo not given),inactive: 3.2%
26,CC1CCN(C(=O)Oc2c(Cl)cc(Cl)c3cccnc23)CC1,inactive: 0.9%
27,c1cc(-c2nn[nH]n2)ccc1-c1nn[nH]n1,inactive: 4.4%
28,CC(C)c1nc(Nc2ccccc2)n(P(=O)(N(C)C)N(C)C)n1,inactive: -3.7%
29,CC(C)=N/N=C(\N)N[N+](=O)[O-],inactive: -1.2%
30,CN(C)C(=O)OCCc1n(C)cc[n+]1C,inactive: -6.6%
